Data set [1] deals with PF13_0235_D1 (AP2 domain 1) (Plasmodium falciparum). Nature of the data set: EMSA. The settings on record: LightShift EMSA buffer, 2.5% glycerol, 5 mM MgCl2, 10 mM EDTA, 50 mM KCl, 0.05% NP-40, 50 ng/uL poly(dI-dC), 10 fmol biotin probe, 50 or 250x competitor, recombinant protein, protein details: N-terminal GST (pGEX-4T1), label: 5' biotin. Background: A gel shift assay detects complexes by their altered migration in electrophoresis.

For data set [2], the system named is PF10_0075_D3 (AP2 domain 3) (Plasmodium falciparum). The experiment in a line: EMSA. The settings on record: LightShift EMSA buffer, 2.5% glycerol, 5 mM MgCl2, 10 mM EDTA, 50 mM KCl, 0.05% NP-40, 50 ng/uL poly(dI-dC), 10 fmol biotin probe, 50 or 250x competitor; recombinant protein; protein details: N-terminal GST (pGEX-4T1); label: 5' biotin.
The target in data set [3] is T1, PFD0985w_D2 (AP2 domain 2) (Plasmodium falciparum) (UniProt Q8I1N6).
T1 sequence (looked up, limits assumed): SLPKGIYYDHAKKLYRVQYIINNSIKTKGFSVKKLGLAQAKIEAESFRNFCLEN
Nature of the data set: EMSA. The settings on record: no binding in absence of either motif (data not shown); LightShift EMSA buffer, 2.5% glycerol, 5 mM MgCl2, 10 mM EDTA, 50 mM KCl, 0.05% NP-40, 50 ng/uL poly(dI-dC), 10 fmol biotin probe, 50 or 250x competitor; recombinant protein; protein details: N-terminal GST (pGEX-4T1); label: 5' biotin.

Data set [4] deals with T2, PFL1900w DLD (PF3D7_1239200, AP2 domain transcription factor, putative) (Plasmodium falciparum) (UniProt Q8I531).
T2 sequence (looked up): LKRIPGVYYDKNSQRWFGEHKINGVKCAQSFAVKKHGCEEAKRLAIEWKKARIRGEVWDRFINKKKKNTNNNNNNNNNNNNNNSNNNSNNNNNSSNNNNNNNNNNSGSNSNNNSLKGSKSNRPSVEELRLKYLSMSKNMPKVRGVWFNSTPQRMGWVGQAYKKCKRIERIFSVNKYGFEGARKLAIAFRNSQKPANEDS
The experiment in a line: EMSA. The settings on record: 5 mM MgCl2 with 10 mM EDTA; LightShift buffer, 2.5% glycerol, 50 mM KCl, 0.05% NP-40, 50 ng/uL poly(dI-dC); room temperature, 20 min; purified recombinant protein; residues 2149-2347; protein details: N-terminal GST (pGEX-4T1), kept; label: 5' biotin.

For data set [5], the system named is PFL1900w_DLD (domain-linker-domain) (Plasmodium falciparum). Nature of the data set: EMSA. The settings on record: LightShift EMSA buffer, 2.5% glycerol, 5 mM MgCl2, 10 mM EDTA, 50 mM KCl, 0.05% NP-40, 50 ng/uL poly(dI-dC), 10 fmol biotin probe, 50 or 250x competitor, recombinant protein, protein details: N-terminal GST (pGEX-4T1).
Data set [6] has the same test system. Nature of the data set: competition with a labelled probe. The settings on record: unlabeled, does not compete with secondary motif probe; LightShift EMSA buffer, 2.5% glycerol, 5 mM MgCl2, 10 mM EDTA, 50 mM KCl, 0.05% NP-40, 50 ng/uL poly(dI-dC), 10 fmol biotin probe, 50 or 250x competitor; recombinant protein; protein details: N-terminal GST (pGEX-4T1); label: 5' biotin (probe), unlabeled as competitor.

Data set [7] deals with T3, PF13_0235 D1ext (PF3D7_1342900, AP2 domain transcription factor, putative) (Plasmodium falciparum) (UniProt C0H5G5).
T3 sequence (looked up, limits assumed): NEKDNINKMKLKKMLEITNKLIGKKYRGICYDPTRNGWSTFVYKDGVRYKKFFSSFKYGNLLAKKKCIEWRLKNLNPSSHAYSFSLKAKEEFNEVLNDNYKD
The experiment in a line: EMSA. The settings on record: 5 mM MgCl2 with 10 mM EDTA; LightShift buffer, 2.5% glycerol, 50 mM KCl, 0.05% NP-40, 50 ng/uL poly(dI-dC); room temperature, 20 min; purified recombinant protein; protein details: N-terminal GST (pGEX-4T1), kept; label: 5' biotin.

Data set [8] relates to PF11_0091 AP2 domain (Plasmodium falciparum). Nature of the data set: EMSA. The settings on record: LightShift EMSA buffer, 2.5% glycerol, 5 mM MgCl2, 10 mM EDTA, 50 mM KCl, 0.05% NP-40, 50 ng/uL poly(dI-dC), 10 fmol biotin probe, 50 or 250x competitor; recombinant protein; protein details: N-terminal GST (pGEX-4T1); label: 5' biotin.

For some of these results: A weaker result is weaker than the reference pair of the same experiment. For some of these results: Where a protein sequence is shown, tags need not be part of it. For some of these results: The exact form of at least one protein or probe is not confirmed. For some of these results: A negative result means that nothing was seen under these conditions. For some of these results: At least one verdict was read from the data and is not stated in words by the source.

The text below walks through data of paper PMC2965767, “Identification and Genome-Wide Prediction of DNA Binding Specificities for the ApiAP2 Family of Regulators from the Malaria Parasite”.

“TTTTAAAAAAAAAAAAAAAGTATAGCGGAAATATACCATTGGATATATATTTAGTATTCC (double strand) [hsp86-MUT3]”: the binding result in data set [1] (both G-boxes removed: binding eliminated) is on record as “no binding”.
“TTTTAAAAAAAAAAAAAAAGCCCCGCGGAAATATACCATTGGATATATATTTAGTATTCC (double strand) [hsp86-MUT2]”: the binding result in data set [1] (severely reduced) is reported as “binds more weakly”.
Turning to “TCAACAATTATTATATAATTAATTAGAAGTGCATTAGGTAACAACTGTCGAATAAATATAT (double strand) [msp10]”, the binding result in data set [2] is reported as “binds”.
Consider “ATTAATTTAATATGTACGCAAGGTGCACACTGGTGCATTAAAAAAAAAATATATATTAAT (double strand) [rhopH3]”, for which the binding result in data set [2] is recorded as “binds”.
Consider “TTTTAAAAAAAAAAAAAAAGCCCCGCGGAAAGGGGCCATTGGATATATATTTAGTATTCC (double strand) [hsp86]”, for which the binding result in data set [1] was “binds”.
Regarding “AATATTATAATAGTCGTAGCCATCAATAAAAAAAAATGGTAATATAGATTTTCGTTTATATT (double strand) [No motif]”, the binding result in data set [3] is reported as “no binding”.
For “AATATTATAATAGTCGTAGCCATCAATACCGCGGTATGGTAATATAGATTTTCGTTTATATT (double strand) [PFL1900w_DLD-3 (motif rank)]”, the binding result in data set [4] is “binds more weakly”.
Turning to “AAATTGTGTAAATTCATATTCGATAAAGTGCATTAATTTTATTTATCAATTGTAAACATA (double strand) [msp1]”, in data set [2], the binding result is on record as “binds”.
As for “AATATTATAATAGTCGTAGCCATCAATACCGCGGTATGGTAATATAGATTTTCGTTTATATT (double strand) [PFL1900w_DLD-3°]”, the binding result in data set [5] (shifted (data not shown), lower preference than secondary, label: 5' biotin (probe), unlabeled as competitor) was “binds more weakly”; in data set [6], “no binding”.
On to “AATATTATAATAGTCGTAGCCATCAATACGACATCATGGTAATATAGATTTTCGTTTATATT (double strand) [PFL1900w_DLD-2°]”, for which the binding result in data set [5] (preferred over tertiary motif, label: 5' biotin (probe), unlabeled as competitor) is “binds”.
Consider “TTTTAAAAAAAAAAAAAAAGTATAGCGGAAAGGGGCCATTGGATATATATTTAGTATTCC (double strand) [hsp86-MUT1]”, for which the binding result in data set [1] (severely reduced) is on record as “binds more weakly”.
For the sequence “AATATTATAATAGTCGTAGCCATCAATTCTACAAAATGGTAATATAGATTTTCGTTTATATT (double strand) [PFL1900w_DLD-1°]”, in data set [5] (data not shown, label: 5' biotin), the binding result was “binds”.
As for “TTTATATTATATATATATAATAATTTAGGCCCCGTGCCCTTATTTTGATTTTTTTTTTTTT (double strand) [hsp70]”, the binding result in data set [7] is “binds more weakly”; in data set [1] (binds, similar to hsp86 with one G-box), “binds more weakly”.
Consider “AAGCAAATAAGATATTCCAAAAAAAAGTATTCTAATGTGTACTAATAAACCTTTATATAA (double strand) [gbp130]”, for which, in data set [8], the binding result is recorded as “binds”.
